Results of unrelated studies side by side (data: NIAID ChemDB).

Inhibition is in % at the dose shown (toxicity tests: loss of growth or viability).

structure | read by | species | cell line | strain or isolate | test | read-out | tested at | protein | changes | result
C=CCN(C(=O)OCc1ccc([N+](=O)[O-])cc1)C1CCN(CC[C@](C)(CN(C)S(=O)(=O)c2ccccc2)c2ccccc2)CC1 | radiometric |  |  |  | target | IC50 |  | CCR5 | CCR5-Y108A | 0.23 µM
CC1(C)[C@@H](O[C@H]2O[C@H](C(=O)O)[C@@H](O)[C@H](O)[C@H]2O[C@@H]2O[C@H](C(=O)O)[C@@H](O)[C@H](O)[C@H]2O)CC[C@]2(C)[C@H]3C(=O)C=C4[C@@H]5C[C@@](C)(C(=O)O)CC[C@]5(C)CC[C@@]4(C)[C@]3(C)CC[C@@H]12 | cytopathic effect | West Nile virus | VERO | E101 | culture | EC50 |  |  |  | 228.9 µg/mL
CCOC(=O)Nc1cc(NC(C)/C(=N/O)c2ccc(O)cc2)c([N+](=O)[O-])c(N)n1 |  | Encephalitozoon intestinalis | RK-13 |  | culture | inhibition | 0.1 µg/mL |  |  | 0%
Cc1cn([C@H]2C=C[C@@H](COP(=O)(O)OP(=O)(O)OP(=O)(O)O)O2)c(=O)[nH]c1=O | nucleotide incorporation / radiometric | HIV |  |  | target | fold resistance |  | Reverse transcriptase | RT-N137K | 17.4
CCN(C(=O)OCc1ccccc1)C1CCN(CC[C@](C)(CN(C)S(=O)(=O)c2ccccc2)c2ccccc2)CC1 | radiometric |  |  |  | target | fold resistance |  | CCR5 | CCR5-Y37A | 0.725
Nc1nc2c(ncn2COCOCP(=O)(O)O)c(=O)[nH]1 | cytopathic effect | Parainfluenza virus |  | SF (TYPE 5) | culture | EC50 |  |  |  | 100 µg/mL
O=C(Nc1nnc(NCc2cccc3ccccc23)s1)c1ccc(I)cc1 |  | Human cytomegalovirus |  |  | target | IC50 |  | Polymerase |  | >25 µM
CCC[C@H](NC(=O)[C@@H]1[C@H]2CCC[C@H]2CN1C(=O)[C@@H](NC(=O)[C@@H](NC(=O)c1cnccn1)C1CCCCC1)C(C)(C)C)C(=O)C(=O)NC1CC1 | substrate cleavage |  |  |  | host protein | IC90 |  | Thrombin |  | <1 µM
Nc1nc2c(ncn2[C@H]2CC[C@@H](COP(=O)(O)OP(=O)(O)OP(=O)(O)O)O2)c(=O)[nH]1 | nucleotide incorporation / radiometric | HIV |  |  | target | IC50 |  | Reverse transcriptase | RT-N137Q | 0.5 µM
O=C(/C=C/c1ccccc1)Nc1nnc(NC2CC2)s1 |  | Human cytomegalovirus |  |  | target | IC50 |  | Polymerase |  | >25 µM
C#CC[C@@H](C(=O)N[C@H](/C=C/C(=O)OCC)C[C@@H]1CCNC1=O)n1cccc(NC(=O)c2cc(C)on2)c1=O | cytopathic effect / XTT | Rhinovirus | H1-HELA | Serotype 13 | culture | EC50 |  |  |  | 0.055 µM
Nc1ncnc2c1ncn2C[C@H](CO)OCP(=O)(O)O | virus yield | Adenovirus |  | TRIM (TYPE 8) | culture | EC90 |  |  |  | 2 µg/mL
CCOC(=O)Nc1cc2c(c(N)n1)N=C(c1ccc3ccccc3c1)CS2 |  | Encephalitozoon intestinalis | RK-13 |  | culture | inhibition | 0.1 µg/mL |  |  | 29.6%
Cc1cn([C@@H]2O[C@H](CO[Si](C)(C)C(C)(C)C)C3(OS(=O)(=O)C=C3N)[C@H]2O[Si](C)(C)C(C)(C)C)c(=O)n(C)c1=O | nucleotide incorporation / radiometric | HIV |  |  | target | fold resistance |  | Reverse transcriptase | RT-N137Y | 0.19
CC(C)c1cc(C(C)C)c(C(=O)Nc2nnc(NCCc3cccs3)s2)c(C(C)C)c1 |  | Human cytomegalovirus |  |  | target | IC50 |  | Polymerase |  | >25 µM
CN[C@@H]1[C@H](O[C@H]2[C@H](O[C@H]3[C@H](O)[C@@H](O)[C@H](N=C(N)N)[C@@H](O)[C@@H]3N=C(N)N)O[C@@H](C)[C@]2(O)C=O)O[C@@H](CO)[C@H](O)[C@H]1O |  | Staphylococcus epidermidis |  |  | culture | MIC |  |  |  | 25 µg/mL
CO[P@](=O)(c1cc(C)cc(/C=C/C#N)c1)c1c(C(N)=O)[nH]c2ccc(Cl)c(F)c12 |  | Human |  |  | host protein | IC50 |  | DNA polymerase gamma |  | 118.5 µM
CCOC(=O)Nc1cc2c(c(N)n1)N=C1c3ccccc3CCC1O2.Cl.Cl |  | Encephalitozoon intestinalis | RK-13 |  | culture | inhibition | 10 µg/mL |  |  | 61.4%
Nc1nc2c(ncn2CCOCP(=O)(O)O)c(=O)[nH]1 | virus yield | Measles virus |  | Halonen | culture | inhibition | 0.3 µg/mL |  |  | 90%
COc1cc(C[C@H](C)[C@H](C)Cc2ccc(O)c(O)c2)ccc1O | broth dilution | Candida colliculosa |  | CCC 122-2000 | culture | MIC100 |  |  |  | 62.5 µg/mL
O=C(Nc1nnc(NCCCCc2ccccc2)s1)c1ccc(C(F)(F)F)cc1 |  | Human cytomegalovirus |  |  | target | IC50 |  | Polymerase |  | <25 µM
O=C(c1ccccc1Cl)N1C[C@H](CN2CCC(O)(CCCc3ccc(-c4nn[nH]n4)cc3)CC2)[C@@H](c2ccccc2)C1 | radiometric |  |  |  | target | fold resistance |  | CCR5 | CCR5-Y108A | 13.64
CC(C)c1cc(C(C)C)c(C(=O)Nc2nnc(NCC3CCCCC3)s2)c(C(C)C)c1 |  | Human cytomegalovirus |  |  | target | IC50 |  | Polymerase |  | >25 µM
CCO/N=C/c1ccc(OCCC2CCN(c3ccc(C)nn3)CC2)cc1 | neutral red | Rhinovirus | KB | Baylor 1 (ICAM-1 receptor group 45) | culture | EC50 |  |  |  | 0.174 µM
CCOC(=O)Nc1cc2c(c(N)n1)N=C(c1ccc(OC)c(OC)c1)CO2 |  | Encephalitozoon intestinalis | RK-13 |  | culture | inhibition | 0.1 µg/mL |  |  | 5.7%
O=C(Nc1nnc(NCc2ccncc2)s1)c1c(Cl)cccc1Cl |  | Human cytomegalovirus |  |  | target | IC50 |  | Polymerase |  | <25 µM

An empty or dashed field is not shown. ICn: concentration for n% inhibition. A number after MIC or MFC names an inhibition level or a share of isolates. Fold resistance: result on the changed form divided by that on wild type. Rows are shuffled and stem from different studies. ECn: concentration that inhibits the pathogen or its effect by n%.